# Screening data, single-dose tests

From ChEMBL document CHEMBL3988442, “University of Dundee, Small-Polar-MMV Screening Library” (2021).

A: 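Growth of Mycobacterium tuberculosis over 3 days (7H9 medium with glucose and tyloxapol); the read-out is not stated. Concentration: 500 µM. Higher reads as more growth inhibition (inferred: compounds with an IC50 in retests scored well above the rest). About 18,000 compounds were tested under these conditions; 7.9% (about 1,400) showed 50% or more at least once.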
B: 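Whole-cell growth test on Mycobacterium tuberculosis, read after 4 days in a medium based on cholesterol and the lipid DPPC; the read-out is not stated. Tested at 500 µM. Higher reads as more growth inhibition (inferred: compounds with an IC50 in retests scored well above the rest). About 18,000 compounds were tested under these conditions; 5% (about 900) showed 50% or more at least once.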

Results are given as percent effect.
The record does not define 0% and 100%; most values in the screen are far below 50% and negative numbers occur (in some assays of this library far below -100).
This is part of a subset picked to be rich in strong results.

CC1CCCN(S(=O)(=O)N(C)Cc2ccco2)C1 (centres unmarked) gave A: 54.19%.
CS(=O)(=O)N1CC(CN)C1 gave A: -7.905%.
COCCn1cncc1CNC(=O)c1ccc(C)s1 gave B: -2.404%.
COc1cccc(C(N)C2CC2)n1 (centres unmarked) gave A: -4.176%.
CC(c1ccccc1F)N1CC(=O)N(C)C1 (centres unmarked) gave A: 4.149%.
CCn1c(CN2CC[C@@H](O)C2)nnc1[C@H]1C[C@@H](N)C1 gave A: -14.77%.
COc1cc(OC)c(NC(=O)Cn2ccnc2)cc1Cl gave A: 72.67%.
CC1(C2CCCN(C(=O)c3ccncc3)C2)OCCO1 (centres unmarked) gave A: 0.02987%.
CC(=O)NCCCS(=O)(=O)c1ncccc1Cl gave A: -4.149%.
Cc1ncc(CN(C)CC(O)COCc2ccco2)s1 (centres unmarked) gave A: 44.35%; B: 52.81%.
Cc1cc(S(=O)(=O)NCCN)ccc1F gave A: 27%; B: 14.03%.
N#Cc1cccc(CN2CCn3ccnc3C2)c1 gave A: 0.5001%.
O=C(Cc1cccs1)NCC1CCCNC1 (centres unmarked) gave A: 7.048%.
Cc1cc(NC(=O)CCN2CCCCC2C(N)=O)no1 (centres unmarked) gave A: 15.22%.
O=C(Cc1cccc(F)c1)NCCn1ccnc1 gave B: 4.789%.
C=C(C(=O)OC)C(O)c1ccc(F)c(F)c1 (centres unmarked) gave A: 48.9%.
COCCCNC(=O)NCCOc1cccc(C)c1 gave A: 32.67%.
Cc1cc(CNC(=O)NCc2ncnn2C)c(C)o1 gave B: 1.068%.
CCn1ncnc1CNC(=O)Cn1nc(C)c(Cl)c1C gave A: 9.142%.
CCN1CCCC1CNC(=O)c1ccccc1F (centres unmarked) gave A: 2.57%.
CN(C)C(=O)N1CCN(CC2CCCCO2)CC1 (centres unmarked) gave A: 11.11%.
CCCc1nnc(NCCc2ccnn2C)o1 gave A: 13.11%.
CSCC(=O)N1CCCCCC1 gave B: -6.266%.
NS(=O)(=O)NCCCc1ccc(Br)cc1F gave A: 82.56%; B: 90.55%.
Cc1cccc(=O)n1CCC(=O)N1CCOCC(O)C1 (centres unmarked) gave A: 0.9616%.
CCOC(=O)Nc1ccc2c(c1)OCCO2 gave A: 59.15%; B: 71.86%.
CNc1ncccc1C(=O)NCCS(=O)(=O)N(C)C gave B: 2.063%.
CC(O)c1cnc2ccccc2c1 (centres unmarked) gave B: -6.373%.
Cc1cc(C(=O)N2CCCN(C)CC2)c(C)s1 gave B: 5.693%.